Source: ChEMBL document CHEMBL2163218, “Design, synthesis, and biological and structural evaluations of novel HIV-1 protease inhibitors to combat drug resistance” (J Med Chem, 2012)

Target: Protease (Human immunodeficiency virus 1, UniProt Q9YQ12)
Experiment: Inhibition of wild type HIV1 protease by FRET assay

SMILES | Ki [nM]
CC[C@H](C)CN(C[C@@H](O)[C@H](Cc1ccccc1)NC(=O)O[C@H](C)CCC(C)=O)S(=O)(=O)c1ccc2ncsc2c1 | 0.303
CC[C@H](C)CN(C[C@@H](O)[C@H](Cc1ccccc1)NC(=O)O[C@@H]1CCOC1=O)S(=O)(=O)c1ccc2ncsc2c1 | 121
CC[C@H](C)CN(C[C@@H](O)[C@H](Cc1ccccc1)NC(=O)OCCNC(=O)OC(C)(C)C)S(=O)(=O)c1ccc2ncsc2c1 | 0.23
